Anti-infective test results gathered from many reports (values: NIAID ChemDB through PubChem).

All rows: whole-cell or culture tests; species: Mycobacterium tuberculosis

Blank or dashed fields: not listed here.

smiles	method	cells	strain or isolate	measure	tested at	changes	result
O=C(O)Cc1cc(C2CCCCC2)nc2ccccc12	-	-	H37Rv	MIC	-	-	>6.25 µg/mL
COc1ccc(-c2oc3cc(O)cc(O)c3c(=O)c2OC)cc1	BACTEC	-	H37Rv	inhibition	100 µg/mL	-	98%
O=C1c2ccccc2C(=O)c2c(NC(=O)C(Cl)CCl)cccc21	BACTEC	-	H37Rv	inhibition	12.5 µg/mL	-	100%
CCCCc1ccc2nccc(N/N=C/c3ccc(OC)c4ccccc34)c2c1	-	VERO	H37Rv	MIC	-	-	6.25 µg/mL
O=C1CSC2(CCCCC2)N1Cc1ccccc1	resazurin	-	H37Ra	inhibition	25 µg/mL	-	8%
Cl.NC(=Nc1ccc(S(=O)(=O)Nc2cnccn2)cc1)/N=C(\N)Nc1ccc(Br)cc1	BACTEC	-	H37Rv	MIC bound	-	-	≤12.5 µg/mL
CCc1c2c(nc3ccc(OCc4ccc(I)cc4)cc13)-c1cc3c(c(=O)n1C2)COC(=O)C3(O)CC	resazurin	-	H37Rv	MIC	-	-	20.55 µM
COc1cc(OC)c(/C=C2/N=C(c3ccc(C)cc3)OC2=O)c(OC)c1	resazurin	-	H37Rv	MIC	-	-	2 µg/mL
CCn1c(-c2ccccc2)c(C(C[N+](=O)[O-])C[N+](=O)[O-])c2ccccc21	-	-	H37Ra	MIC	-	-	128 µg/mL
Cc1ccc(C2=N/C(=C/c3ccc(C#N)cc3)C(=O)O2)cc1	resazurin	-	H37Rv	MIC	-	-	8 µg/mL
O=C(N/N=C/c1ccc(N(CCCl)CCCl)cc1)C(=O)c1c[nH]c2ccccc12	BACTEC	-	H37Rv	MIC bound	-	-	≤12.5 µg/mL
O=C(N/N=C/c1ccccc1)c1ccncc1	resazurin	-	ATTC 27294	MIC	-	-	3.12 µg/mL
c1ccc(B2OB(c3ccccc3CN3CCCC3)OB(c3ccccc3CN3CCCC3)O2)c(CN2CCCC2)c1	BACTEC	-	H37Rv	MIC	-	-	≥128 µg/mL
CC[C@H]1OC(=O)[C@H](C)[C@@H](O[C@H]2C[C@@](C)(OC)[C@@H](O)[C@H](C)O2)[C@H](C)[C@@H](O[C@@H]2O[C@H](C)C[C@H](N(C)C)[C@H]2O)[C@](C)(OC)C[C@@H](C)C(=O)[C@H](C)[C@@H](O)[C@]1(C)O	-	-	23 strains (rifampin- isoniazid-susceptible)	MIC90	-	-	50 µg/mL
O=c1cccc2n1C[C@H]1C[C@@H]2CN2CCCC[C@H]12	BACTEC	-	H37Rv	inhibition	12.5 µg/mL	-	1%
CCc1c2c(nc3ccc(OCc4ccc(F)cc4C(F)(F)F)cc13)-c1cc3c(c(=O)n1C2)COC(=O)C3(O)CC	resazurin	-	H37Rv	MIC	-	-	21.99 µM
CCCCCCCCN1C(=O)C(C)SC12CCCCC2	resazurin	-	H37Ra	inhibition	25 µg/mL	-	87%
Fc1cccc(Cl)c1CNCCc1c[nH]c2ccccc12	-	-	H37Ra	MIC	-	-	64 µg/mL
Cc1cc(NN)c2cc(F)ccc2n1	-	VERO	H37Rv	MIC	-	-	>12.5 µg/mL
COC(C)(C)C/C=C/C(C)=C/C=C/C(C)=C/C=C/C(C)=C/C=C/C=C(C)/C=C/C=C(C)/C=C/C=C(C)/C=C/CC(C)(C)OC	BACTEC	-	H37Rv	MIC	-	-	≥12.5 µg/mL
C[C@H]1COc2c(N3CCN(C)CC3)c(F)cc3c(=O)c(C(=O)O)cn1c23	-	-	23 strains (rifampin- isoniazid-susceptible)	MIC90	-	-	0.39 µg/mL
CC(CN(C)C)CN1c2ccccc2Sc2ccc(Cl)cc21	-	-	H37Rv	MIC	-	-	16 µg/mL
Cc1ccc(C2=N/C(=C/c3ccc(Br)cc3)C(=O)O2)cc1	resazurin	-	H37Rv	MIC	-	-	32 µg/mL
COC(=O)Cc1ccnc2ccccc12	-	-	H37Rv	MIC	-	-	>6.25 µg/mL
CCOC(=O)C(NC(=O)c1ccccc1)(c1ccc(S(=O)(=O)Nc2onc(C)c2C)cc1)C(F)(F)F	BACTEC	-	H37Rv	MIC bound	-	-	>12.5 µg/mL
O=C(CCC(=O)c1cccs1)NC[C@H]1CN(c2ccc(-n3cncn3)c(F)c2)C(=O)O1	-	-	10 clinical isolates sensitive	MIC	-	-	1–2 µg/mL
Fc1ccccc1CNCc1c[nH]c2ccccc12	-	-	H37Ra	MIC	-	-	64 µg/mL
O=C(Nc1ccc(I)cc1)c1cccnc1Cl	-	-	H37Rv	MIC	-	-	>20 µg/mL
Cc1ccc(C2=N/C(=C/c3ccc(F)cc3)C(=O)O2)cc1	resazurin	-	H37Rv	MIC	-	-	16 µg/mL
CCc1c2c(nc3ccc(OCc4ccccc4Br)cc13)-c1cc3c(c(=O)n1C2)COC(=O)C3(O)CC	resazurin	-	XDR	MIC	-	Extensively drug-resistant	22.26 µM
N[C@@H]1CN(c2c(F)cc3c(=O)c(C(=O)O)cn([C@@H]4C[C@@H]4F)c3c2Cl)CC12CC2	-	-	27 strains (levofloxacin-susceptible)	MIC50	-	-	0.1 µg/mL
O=C1C(=O)c2cccnc2C(NCc2ccccc2)=C1Cl	-	-	H37Rv	inhibition	6.25 µg/mL	-	1%
O=[N+]([O-])C1=CN2C[C@H](OCc3ccc(OC(F)(F)F)cc3)COC2N1	broth dilution	-	F420-	MIC	-	-	>100 µM
CCCCCCCCN1C(=O)C(CC(=O)O)SC12CCCCC2	resazurin	-	H37Ra	inhibition	25 µg/mL	-	8%
CN(C)C=C1C=CC=C1	BACTEC	-	H37Rv	inhibition	12.5 µg/mL	-	0%
CCCCCCCCCCCCN1C(=O)C(CC(=O)O)SC12CCCC2	resazurin	-	H37Ra	EC50	-	-	<25 µg/mL
O=C(NNC(=O)c1cc([N+](=O)[O-])cc([N+](=O)[O-])c1)c1ccncc1	resazurin	-	ATTC 27294	MIC	-	-	2 µg/mL
Cn1c(-c2ccccc2)c(C(C[N+](=O)[O-])C[N+](=O)[O-])c2ccccc21	-	-	H37Ra	MIC	-	-	>128 µg/mL
COc1cc(/C=N/NC(=O)c2cccc([N+](=O)[O-])c2)ccc1O	BACTEC	-	H37Rv	MIC bound	-	-	>12.5 µg/mL
CCOC(=O)C(Cc1ccccc1)NP(=O)(CCC(=O)N1C[C@H](OCC(O)P(=O)(NC(Cc2ccccc2)C(=O)OCC)NC(Cc2ccccc2)C(=O)OCC)[C@H](n2cnc3c(=O)[nH]c(N)nc32)C1)NC(Cc1ccccc1)C(=O)OCC	resazurin / low oxygen / fluorescence	-	H37Rv	MIC90	-	-	29 µM
CCCCCCCCCCCCN1C(=O)C(CC(=O)O)SC12CCC(C(C)(C)C)CC2	resazurin	-	H37Ra	EC50	-	-	<25 µg/mL
Cc1ccnc(NC(=O)c2cccnc2Cl)c1	-	-	H37Rv	MIC	-	-	>20 µg/mL
CCC1(CC)N=C2OCCN2C1=O	BACTEC	-	H37Rv	inhibition	12.5 µg/mL	-	-7%
Clc1ccc(CNCc2c[nH]c3ccccc23)cc1	-	-	H37Ra	MIC	-	-	16 µg/mL
CCCCCCCCCCCCN1C(=O)C(CC(=O)O)SC12CCNCC2	resazurin	-	H37Ra	inhibition	25 µg/mL	-	3%
Cc1ccc(C2=N/C(=C/c3ccccc3)C(=O)O2)cc1	resazurin	-	H37Rv	MIC	-	-	16 µg/mL
CCCCCCCCCCCCN1C(=O)C(CC(=O)O)SC12CCCCC2	resazurin	-	H37Ra	inhibition	25 µg/mL	-	97%
COCN1C(=O)N2C(c3ccccc3)(c3ccccc3)C(C(=O)OC)=C(C(=O)OC)P12(c1ccccc1)c1ccccc1	BACTEC	-	H37Rv	inhibition	12.5 µg/mL	-	12%
O=C(CCC(=O)c1ccc2ccccc2c1)NC[C@H]1CN(c2ccc(-n3cncn3)c(F)c2)C(=O)O1	-	-	10 clinical isolates resistant	MIC	-	-	2–8 µg/mL
COC(=O)c1ccc2c(C3CCCC3)cccc2n1	-	-	H37Rv	inhibition	6.25 µg/mL	-	97%
O=C(NN=Cc1ccc([N+](=O)[O-])cc1)c1ccncc1	resazurin	-	ATTC 27294	MIC	-	-	1.2 µg/mL
CCc1c2c(nc3ccc(OCc4ccc(OC)c(F)c4)cc13)-c1cc3c(c(=O)n1C2)COC(=O)C3(O)CC	resazurin	-	XDR	MIC	-	Extensively drug-resistant	23.56 µM
OC[C@H]1O[C@H](c2nn(-c3ccccc3)[n+](-c3ccccc3)n2)[C@@H](O)[C@H]1O	BACTEC	-	H37Rv	inhibition	12.5 µg/mL	-	-4%
CCc1c2c(nc3ccc(OCc4cc(OC)ccc4Br)cc13)-c1cc3c(c(=O)n1C2)COC(=O)C3(O)CC	resazurin	-	XDR	MIC	-	Extensively drug-resistant	21.18 µM
O=C(NNc1cccc([N+](=O)[O-])c1)c1cccnc1Cl	-	-	H37Rv	MIC	-	-	>20 µg/mL
COc1ccc(/C=N/Nc2cc(C)nc3cc(Cl)cc(Cl)c23)c2ccccc12	-	VERO	H37Rv	MIC	-	-	>12.5 µg/mL
NNC(=O)Cc1cccc2cc(Cl)c(Cl)cc12	BACTEC	-	H37Rv	MIC bound	-	-	>12.5 µg/mL
COC(=O)NC[C@H]1CN(c2cc(F)c(N3C[C@@H]4OC(=O)N[C@@H]4C3)c(F)c2)C(=O)O1	resazurin	-	H37Rv	MIC100	-	-	1.25 µM
CC(CN1c2ccccc2Sc2ccccc21)[N+](C)(C)C	-	-	H37Rv	MIC	-	-	128 µg/mL
CC(C)(C)c1ccc(C(=O)CCC(=O)NC[C@H]2CN(c3ccc(N4CCOCC4)c(F)c3)C(=O)O2)cc1	-	-	ATCC 27294	MIC	-	-	1 µg/mL
Fc1ccccc1CNCCc1c[nH]c2ccccc12	-	-	H37Ra	MIC	-	-	64 µg/mL
Cc1ccc(C2=N/C(=C/c3ccc(Cl)cc3)C(=O)O2)cc1	resazurin	-	H37Rv	MIC	-	-	16 µg/mL
Clc1ccc(-c2nc(-c3cc4cc(Cl)ccc4o3)cs2)cc1	BACTEC	-	H37Rv	MIC bound	-	-	>12.5 µg/mL
O=C(CCC(=O)c1ccc(F)cc1F)NC[C@H]1CN(c2ccc(N3CCOCC3)c(F)c2)C(=O)O1	-	-	ATCC 27294	MIC	-	-	4 µg/mL
COc1ccc2c(NN)ccnc2c1	-	VERO	H37Rv	MIC	-	-	12.5 µg/mL
NC(N)=NC(N)=NCCS(=O)(=O)O	BACTEC	-	H37Rv	inhibition	6.25 µg/mL	-	11%
CC(=O)NC[C@H]1CN(c2cc(F)c(N3C[C@@H]4OC(=O)N[C@@H]4C3)c(F)c2)C(=O)O1	resazurin	-	H37Rv	MIC100	-	-	0.25 µM
COC(=O)c1cc(C2CCCC2)nc2c(C3CCCC3)cccc12	-	-	H37Rv	MIC	-	-	>6.25 µg/mL
CN(C)CCCN1c2ccccc2Sc2ccc(Cl)cc21	-	-	H37Rv	MIC	-	-	16 µg/mL
NNC(=O)c1cccc(C(=O)NN)c1	BACTEC	-	H37Rv	MIC	-	-	≥12.5 µg/mL
Clc1cccc(CNCc2c[nH]c3ccc(Br)cc23)c1	-	-	H37Ra	MIC	-	-	8 µg/mL
C/C(=N\NC(=S)N1CC2CCC(CC2)C1)c1cnccn1	BACTEC	-	H37Rv	MIC bound	-	-	≤12.5 µg/mL
Fc1cc(F)cc(CNCCc2c[nH]c3ccccc23)c1	-	-	H37Ra	MIC	-	-	64 µg/mL
CCCCCCCCCCCCN1C(=O)C(CC(=O)O)SC12CCN(C(=O)C(N)CC(=O)O)CC2	resazurin	-	H37Ra	inhibition	25 µg/mL	-	2%
O=C(O)c1cc(C2C3CC4CC(C3)CC2C4)c2ccccc2n1	-	-	H37Rv	inhibition	6.25 µg/mL	-	15%
CC(CN(C)C)CN1c2ccccc2Sc2ccccc21	-	-	H37Rv	MIC	-	-	32 µg/mL
CCCCc1ccc2nc(C)cc(NN)c2c1	-	VERO	H37Rv	MIC	-	-	6.25 µg/mL
CCc1c2c(nc3ccc(OCc4cccc(OC)c4)cc13)-c1cc3c(c(=O)n1C2)COC(=O)C3(O)CC	resazurin	-	H37Rv	MIC	-	-	12.2 µM
COC(=O)NC[C@H]1CN(c2cc(F)c(N3CC4NC(=O)OC4C3)c(F)c2)C(=O)O1	resazurin	-	H37Rv	MIC100	-	-	0.31 µM
CCOC(=O)C(=O)N=Nc1nc2c(O)c3ccccc3c(O)c2s1	-	VERO	H37Rv	MIC	-	-	0.8 µg/mL
Clc1ccc(CNCCc2c[nH]c3ccccc23)cc1Cl	-	-	H37Ra	MIC	-	-	32 µg/mL
COC(=O)c1cc2ccccc2nc1C1CCCCC1	-	-	H37Rv	inhibition	6.25 µg/mL	-	35%
O=C1OC2C(COC(=O)c3cc(O)c(O)c(O)c3-c3c(O)c(O)c4oc(=O)c5c(c(O)c(O)c6oc(=O)c3c4c65)-c3cc1c(O)c(O)c3O)OC(O)[C@@H]1OC(=O)c3cc(O)c(O)c(O)c3-c3c(cc(O)c(O)c3O)C(=O)OC21	BACTEC	-	H37Rv	inhibition	12.5 µg/mL	-	0%
O=C(Nc1ccccc1)c1cccnc1Cl	-	-	H37Rv	MIC	-	-	>20 µg/mL

The first 8 rows once more:

smiles,method,cells,strain or isolate,measure,tested at,changes,result
O=C(O)Cc1cc(C2CCCCC2)nc2ccccc12,-,-,H37Rv,MIC,-,-,>6.25 µg/mL
COc1ccc(-c2oc3cc(O)cc(O)c3c(=O)c2OC)cc1,BACTEC,-,H37Rv,inhibition,100 µg/mL,-,98%
O=C1c2ccccc2C(=O)c2c(NC(=O)C(Cl)CCl)cccc21,BACTEC,-,H37Rv,inhibition,12.5 µg/mL,-,100%
CCCCc1ccc2nccc(N/N=C/c3ccc(OC)c4ccccc34)c2c1,-,VERO,H37Rv,MIC,-,-,6.25 µg/mL
O=C1CSC2(CCCCC2)N1Cc1ccccc1,resazurin,-,H37Ra,inhibition,25 µg/mL,-,8%
Cl.NC(=Nc1ccc(S(=O)(=O)Nc2cnccn2)cc1)/N=C(\N)Nc1ccc(Br)cc1,BACTEC,-,H37Rv,MIC bound,-,-,≤12.5 µg/mL
CCc1c2c(nc3ccc(OCc4ccc(I)cc4)cc13)-c1cc3c(c(=O)n1C2)COC(=O)C3(O)CC,resazurin,-,H37Rv,MIC,-,-,20.55 µM
COc1cc(OC)c(/C=C2/N=C(c3ccc(C)cc3)OC2=O)c(OC)c1,resazurin,-,H37Rv,MIC,-,-,2 µg/mL

ECn: concentration that inhibits the pathogen or its effect by n%. Two numbers with a dash give a range or band. Conditions beyond the fields shown may differ between rows. Percent inhibition refers to the dose given; in toxicity tests it is the harm to the cells. MIC bound comes from a single tested concentration. MIC50, MIC90 and the like: level of inhibition, or share of isolates inhibited.